Anti-infective test results gathered from many reports (values: NIAID ChemDB through PubChem).

Shared fields: growth or infection tests; species: HIV-1; read by: p24; read-out: fold resistance

Fold resistance has wild type as its base.

smiles,cell line,strain or isolate,changes,value
Cc1ccccc1Cc1cccc(C(=O)CC(=O)C(=O)O)c1,-,-,INTG-N155S,6
CC(C)CN(C[C@@H](O)[C@H](Cc1ccccc1)NC(=O)[C@H](CC(N)=O)NC(=O)c1ccc2ccccc2n1)C(=O)NC(C)(C)C,MT-4,NL4-3,PR-L10R L63P V82T,2
O=c1[nH]cnc2c1ncn2[C@H]1CC[C@@H](CO)O1,MT-4,IIIB 3TC (RT-M184V),RT-M184V,4
Nc1ccn([C@@H]2CO[C@H](CO)S2)c(=O)n1,C8166,RF,RT-M184V,18.2
O=C(Nc1nccs1)c1cccc(CN2C(=O)N(Cc3ccccc3)[C@H](Cc3ccccc3)[C@H](O)[C@@H](O)[C@H]2Cc2ccccc2)c1,MT-4,HXB2,PR-V82F,3
O=c1[nH]cnc2c1ncn2[C@H]1CC[C@@H](CO)O1,PBMC,-,RT-L74V T215Y K219Q,5
CC(C)(C)NC(=O)[C@@H]1C[C@@H]2CCCC[C@@H]2CN1C[C@@H](O)[C@H](Cc1ccccc1)NC(=O)[C@H](CC(N)=O)NC(=O)c1ccc2ccccc2n1,MT-4,NL4-3,PR-L63P,2
Nc1ccn([C@H]2CC[C@@H](CO)O2)c(=O)n1,MT-2,P119S(RT-P119S),RT-P119S,0.9
O=c1[nH]cnc2c1ncn2[C@H]1CC[C@@H](CO)O1,MT-4,XM-AZT-resistant,RT-M41L D67N K70R T215Y K219Q,1.6
C[C@@H](NC(=S)Nc1ccc(Cl)cn1)c1cccc2ccccc12,PBMC,NNRTI-resistant (RT Y181C K103N) A17V,RT-Y181C K103N,367
CCc1cc(NCc2nc3c(Cl)ccc(Cl)c3o2)c(=O)[nH]c1C,MT-4,NL4-3,RT-Y188L,>30
CC(C)(C)NC(=O)[C@@H]1C[C@@H]2CCCC[C@@H]2CN1C[C@@H](O)[C@H](Cc1ccccc1)NC(=O)[C@H](CC(N)=O)NC(=O)c1ccc2ccccc2n1,MT-4,NL4-3.C11 (PR L10F M46I I84V T91S),PR-L10F M46I I84V T91S,0.333
CC(C)Nc1cccnc1N1CCN(C(=O)c2cc3cc(NS(C)(=O)=O)ccc3[nH]2)CC1,PBMC,BaL,RT-P236L,243
Cc1csc(NC(=S)N[C@H](C)c2cccc3ccccc23)n1,PBMC,RT multidrug-resistant (L74V V106A T215Y),RT-L74V V106A T215Y,1.9
CC(C)(c1ncc(-c2ccc(F)cc2)o1)N1CCN(C[C@@H](O)C[C@@H](Cc2nnco2)C(=O)N[C@H]2c3ccccc3OC[C@H]2O)[C@H](C(=O)NCC(F)(F)F)C1,MT-4,K-60 Clinical isolate,PR-L10I M46I I54V Q58E L63P I64V V77I V82F I84V L90M I93L,1
C[C@@H](CNC(=S)Nc1ccccn1)c1ccccc1,PBMC,NNRTI-resistant (RT Y181C K103N) A17V,RT-Y181C K103N,19
CCCc1nnc(C[C@H](C[C@H](O)CN2CCN(C(C)(C)c3ncc(-c4ccc(F)cc4)o3)C[C@H]2C(=O)NCC(F)(F)F)C(=O)N[C@H]2c3ccccc3OC[C@H]2O)o1,MT-4,Q-60 Clinical isolate,PR-L10I N37S R41K M46I I54V I62V L63P A71V V77I V82A L90M I93L,≤0.5
Nc1ncnc2c1ncn2[C@@H]1O[C@H](CO)C[C@@H]1F,MT-2,K65R(RT-K65R),RT-K65R,2.3
S=C(NCCc1ccccn1)Nc1ccc(Br)cn1,PBMC,NRTI resistant (RT Y181C) A17,RT-Y181C,71.4
COc1ccc(S(=O)(=O)N(CC(C)C)C[C@@H](O)[C@H](Cc2ccccc2)NC(=O)O[C@H]2CO[C@H]3OCC[C@H]32)cc1,PBMC,Clinical isolate,PR-L10I I15V K20R M36I M46L I54V K55R I62V L63P K70Q V82A L89M,2
CCCc1nnc(C[C@H](C[C@H](O)CN2CCN(C(C)(C)c3ncc(-c4cncc(OC)c4)o3)C[C@H]2C(=O)NCC(F)(F)F)C(=O)N[C@H]2c3ccccc3OC[C@H]2O)o1,MT-4,K-60 Clinical isolate,PR-L10I M46I I54V Q58E L63P I64V V77I V82F I84V L90M I93L,1
O=c1[nH]cnc2c1ncn2[C@H]1CC[C@@H](CO)O1,MT-2,NL4-3,RT-I178L,0.67
S=C(NCCc1cccs1)Nc1ccc(Br)cn1,PBMC,NRTI resistant (RT Y181C) A17,RT-Y181C,1.3
Cc1cn([C@H]2C[C@H](N=[N+]=[N-])[C@@H](CO)O2)c(=O)[nH]c1=O,MT-4,HXB2D (RT-K65R),RT-K65R,0.917
Nc1nc2c(ncn2[C@H]2CO[C@@H](CO)O2)c(=O)[nH]1,MT-2,LAI,RT-K65R,8.7
CC(C)c1nc(CN(C)C(=O)N[C@H](C(=O)N[C@@H](Cc2ccccc2)C[C@H](O)[C@H](Cc2ccccc2)NC(=O)OCc2cncs2)C(C)C)cs1,PBMC,Clinical isolate,PR-L10I I15V E35D N37E K45R I54V L63P A71V V82T L90M I93L C95F,>23
Cc1ccc(NC(=S)N[C@H](C)c2cccc3ccccc23)nc1,PBMC,A17,RT-Y181C,6
O=C(Nc1nc2ccccc2[nH]1)c1cccc(CN2C(=O)N(CC3CC3)[C@H](Cc3ccccc3)[C@H](O)[C@@H](O)[C@H]2Cc2ccccc2)c1,MT-4,HXB2,PR-M46I I47V I50V,2.1
Nc1ccn([C@H]2CC[C@@H](CO)O2)c(=O)n1,MT-2,-,RT-T69G,7.4
CC(C)Nc1cccnc1N1CCN(C(=O)c2cc3cc(NS(C)(=O)=O)ccc3[nH]2)CC1,PBMC,410 clinical isolates AZT-resistant,-,>100
C[C@H](CNC(=S)Nc1ccc(Br)cn1)c1ccccc1,PBMC,NNRTI-resistant (RT Y181C) A17,RT-Y181C,39
CC(C)=CCN1Cc2cc(Cl)cc3[nH]c(=S)n(c23)C[C@@H]1C,CEM,IIIB,RT-M184I,1
CC(C)(c1ncc(-c2ccc(Cl)cc2)o1)N1CCN(C[C@@H](O)C[C@@H](Cc2nnc(-c3ccccc3)o2)C(=O)N[C@H]2c3ccccc3OC[C@H]2O)[C@H](C(=O)NCC(F)(F)F)C1,MT-4,K-60 Clinical isolate,PR-L10I M46I I54V Q58E L63P I64V V77I V82F I84V L90M I93L,1
Nc1ccn([C@H]2CC[C@@H](CO)O2)c(=O)n1,PBMC,-,RT-L74V T215Y K219Q,5.3
O=C(NCc1ccc(F)cc1)c1nc(N2CCCCS2(=O)=O)c2cccnc2c1O,-,-,INTG-T66I S153Y,2.5
C[C@@H](NC(=S)Nc1ccc(Cl)cn1)c1cccc2ccccc12,PBMC,RT multidrug-resistant (L74V V106A T215Y),RT-L74V V106A T215Y,0.2
Cc1cn([C@H]2C[C@H](N=[N+]=[N-])[C@@H](CO)O2)c(=O)[nH]c1=O,PBMC,6 clinical isolates AZT-resistant,-,5.33
Nc1cccc(CN2C(=O)N(Cc3cccc(N)c3)[C@H](Cc3ccccc3)[C@H](O)[C@@H](O)[C@H]2Cc2ccccc2)c1,MT-4,HXB2,PR-V82F,5.3
O=C(N[C@H]1c2ccccc2OC[C@H]1O)[C@H](Cc1nnc(-c2ccccc2)o1)C[C@H](O)CN1CCN(Cc2ccc(-c3ccc(Cl)cc3)o2)C[C@H]1C(=O)NCC(F)(F)F,MT-4,V-18 Clinical isolate,PR-L10I M36I N37D M46I R57K L63P A71V G73S I84V L90M I93L,16
Cc1cn([C@H]2C[C@H](N=[N+]=[N-])[C@@H](CO)O2)c(=O)[nH]c1=O,MT-4,XM-T69SSS,RT-T69SSS L210W T215Y,3850
CC(C)[C@H](NC(=O)OCc1ccccc1)C(=O)N[C@@H](Cc1ccccc1)[C@@H](O)[C@H](O)[C@H](Cc1ccccc1)NC(=O)[C@@H](NC(=O)OCc1ccccc1)C(C)C,MT-4,MK639-resistant (PR L10F M46I L63P V82F I84V),PR-L10F M46I L63P V82F I84V,>150
CC(C)(C)NC(=O)[C@@H]1C[C@@H]2CCCC[C@@H]2CN1C[C@@H](O)[C@H](Cc1ccccc1)NC(=O)[C@H](CC(N)=O)NC(=O)c1ccc2ccccc2n1,PBMC,Clinical isolate,PR-L10I K14R R41K M46L I54V L63P A71V V82A L90M I93L,19
Cc1cn([C@H]2C[C@H](N=[N+]=[N-])[C@@H](CO)O2)c(=O)[nH]c1=O,MT-2,LAI,RT-K65R,3.3
Cc1cn([C@H]2C[C@H](N=[N+]=[N-])[C@@H](CO)O2)c(=O)[nH]c1=O,PBMC,Recombinant,RT-V75I F77L F116Y Q151M,0.1
CC(=O)c1ccccc1NC(C(N)=O)c1c(Cl)cccc1Cl,MT-4,R88703-resistant IIIB (RT Y181C),RT-Y181C,>66.7
Cc1cn([C@H]2C[C@H](N=[N+]=[N-])[C@@H](CO)O2)c(=O)[nH]c1=O,MT-2,RT P119S L214F,RT-P119S L214F,1.4
CCCc1nnc(C[C@H](C[C@H](O)CN2CCN(C(C)(C)c3ncc(-c4ccc(Cl)cc4)o3)C[C@H]2C(=O)NCC(F)(F)F)C(=O)N[C@H]2c3ccccc3OC[C@H]2O)o1,MT-4,K-60 Clinical isolate,PR-L10I M46I I54V Q58E L63P I64V V77I V82F I84V L90M I93L,≥2
Nc1nc(NC2CC2)c2ncn([C@H]3C=C[C@@H](CO)C3)c2n1,MT-2,-,RT-delta67 T69G,12
Cc1csc(NC(=S)N[C@H](C)c2cccc3ccccc23)n1,PBMC,NNRTI-resistant (RT Y181C K103N) A17V,RT-Y181C K103N,114
CC(C)(O)c1cccc(CN2C(=O)N(Cc3cccc(C(C)(C)O)c3)[C@H](Cc3ccccc3)[C@H](O)[C@@H](O)[C@H]2Cc2ccccc2)c1,MT-2/MT-4 + MT-2,HXB2,PR-184V,3.25
C[C@H](Cn1cnc2c(N)ncnc21)OCP(=O)(O)O,MT-2,N119 (NNRTI-resistant RT Y181C),RT-Y181C,0.118
Nc1ncnc2c1ncn2CCOCP(=O)(O)O,MT-2,M184V(RT-M184V),RT-M184V,1.1
Cc1occc1C(=S)Nc1ccc(Cl)c(/C=N/OC(C)(C)C)c1,CEM,IIIB,RT-Y181C,1.5
O=C(N[C@H]1c2ccccc2OC[C@H]1O)[C@H](Cc1nnco1)C[C@H](O)CN1CCN(Cc2ccc(-c3ccc(Cl)cc3)o2)C[C@H]1C(=O)NCC(F)(F)F,MT-4,Q-60 Clinical isolate,PR-L10I N37S R41K M46I I54V I62V L63P A71V V77I V82A L90M I93L,0.49
COc1ccc2c(c1)N(C(=O)OC(C)C)[C@@H](CSC)C(=S)N2,CEM,IIIB,RT-M184V,3
Fc1ccccc1CCNC(=S)Nc1ccc(Br)cn1,PBMC,A17,RT-K103N Y181C,>35000
CC(C)CN(C[C@@H](O)[C@H](Cc1ccccc1)NC(=O)O[C@H]1CCOC1)S(=O)(=O)c1ccc(N)cc1,PBMC,Clinical isolate,PR-L10I I15V K20R M36I M46L I54V K55R I62V L63P K70Q V82A L89M,11.2
CC(C)CN(C[C@@H](O)[C@H](Cc1ccccc1)NC(=O)O[C@H]1CCOC1)S(=O)(=O)c1ccc(N)cc1,MT-4,NL4-3,PR-D30N N88D,0.5
Nc1ccn([C@@H]2CS[C@H](CO)O2)c(=O)n1,PBMC,Recombinant,RT-V75I F77L F116Y Q151M,0.05
O=C(O)P(=O)(O)O,MT-2,LAI,RT-K65R,3
CCNc1cccnc1N1CCN(C(=O)c2cc3cc(OC)ccc3[nH]2)CC1,Macrophage + Monocytes/macrophages,BaL,RT-V106A,>35
C[C@@H](CNC(=S)Nc1ccc(Br)cn1)c1ccccc1,PBMC,NNRTI-resistant (RT Y181C K103N) A17V,RT-Y181C K103N,360
Cc1cn([C@@H]2O[C@H](CO[Si](C)(C)C(C)(C)C)C3(OS(=O)(=O)C=C3N)[C@H]2O[Si](C)(C)C(C)(C)C)c(=O)n(C)c1=O,CEM,IIIB,RT-Y181C,83.3
C[C@@H](NC(=S)Nc1ccc(Br)cn1)c1cccc2ccccc12,PBMC,RT multidrug-resistant (L74V V106A T215Y),RT-L74V V106A T215Y,1

The last 5 rows once more:

| smiles | cell line | strain or isolate | changes | value |
|---|---|---|---|---|
| O=C(O)P(=O)(O)O | MT-2 | LAI | RT-K65R | 3 |
| CCNc1cccnc1N1CCN(C(=O)c2cc3cc(OC)ccc3[nH]2)CC1 | Macrophage + Monocytes/macrophages | BaL | RT-V106A | >35 |
| C[C@@H](CNC(=S)Nc1ccc(Br)cn1)c1ccccc1 | PBMC | NNRTI-resistant (RT Y181C K103N) A17V | RT-Y181C K103N | 360 |
| Cc1cn([C@@H]2O[C@H](CO[Si](C)(C)C(C)(C)C)C3(OS(=O)(=O)C=C3N)[C@H]2O[Si](C)(C)C(C)(C)C)c(=O)n(C)c1=O | CEM | IIIB | RT-Y181C | 83.3 |
| C[C@@H](NC(=S)Nc1ccc(Br)cn1)c1cccc2ccccc12 | PBMC | RT multidrug-resistant (L74V V106A T215Y) | RT-L74V V106A T215Y | 1 |

Lines come from different laboratories, so protocols vary. An empty or dashed field is not shown.